In the experiment the target is Dbs-mediated activation of RhoA (Homo sapiens, UniProt P61586). As to the kind of experiment: fluorescence guanine nucleotide exchange reaction, Dbs-mediated activation of RhoA. Type of experiment: biochemical. The conditions noted are these: fluorescence after addition of GEF, versus DMSO vehicle control.

Chains of the proteins cited; added tags and fusions are not shown.
UniProt P61586, whole entry, looked up: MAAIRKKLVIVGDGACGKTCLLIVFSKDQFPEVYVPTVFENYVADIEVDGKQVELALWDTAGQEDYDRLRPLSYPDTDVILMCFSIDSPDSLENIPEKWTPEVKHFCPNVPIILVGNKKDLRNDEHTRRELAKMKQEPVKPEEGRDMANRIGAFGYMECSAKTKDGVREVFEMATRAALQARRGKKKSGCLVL

Take `O=[As]c1ccccc1` (stereo not shown): the “effect on Dbs-mediated RhoA activation / guanine nucleotide exchange” value is listed as “inhibits RhoA activation”.

(Values after patent publication US7807400B2, “Methods for identifying chemical modulators of Ras superfamily GTPase activity” (The University of North Carolina at Chapel Hill, priority 2004, dated 2010).)
